Pooled drug test results. Numbers come from NIAID ChemDB, via PubChem.

All rows: whole-cell or culture tests; agent: HIV-1; cell line: CEM; read-out: EC50

a–b is a range or a potency band. An empty or dashed field is not shown. Rows are shuffled and stem from different studies. ECn is the concentration giving n% inhibition of infection, replication or growth.

| smiles | strain or isolate | mutations | read by | conditions | value |
|---|---|---|---|---|---|
| C[C@@]1(CO)C=CC(c2c[nH]c(=O)[nH]c2=O)C1 |  |  | XTT |  | 72.1 µM |
| [N-]=[N+]=N[C@@H]1[C@H](O)[C@@H](CO)O[C@H]1n1ccc(N)nc1=O | IIIB |  | p24 |  | >0.5 µM |
| Nc1nc(N)c(Cl)c(OCCOCP(=O)(O)O)n1 | IIIB |  | syncytia |  | 0.93 µg/mL |
| CC(C)Nc1cccnc1N1CCN(C(=O)c2cc3cc(NS(C)(=O)=O)ccc3[nH]2)CC1 | IIIB | RT-K103N | cytopathic effect |  | 0.27 µg/mL |
| CC[C@H](C)[C@H](NC(=O)c1ccccc1SSc1ccccc1C(=O)N[C@H](C(=O)O)[C@@H](C)CC)C(=O)O |  |  | cytopathic effect / XTT |  | 5 µM |
| Cc1c(N)nc(N)nc1OCCOCP(=O)(O)O | IIIB |  | syncytia |  | 0.09 µg/mL |
| Cc1ccnc2c1NC(=O)c1cccnc1N2C1CC1 | LAI |  | fluorescence |  | 0.105 µM |
| Cc1cn([C@H]2C[C@H](N=[N+]=[N-])[C@@H](CO)O2)c(=O)[nH]c1=O |  |  | XTT |  | 0.01 µM |
| CCOc1ccc(C[C@H](NC(=O)c2cccc(O)c2C)[C@H](O)C(=O)N2CSC(C)(C)[C@H]2C(=O)NCc2ccccc2C)cc1 | IIIB |  | cytopathic effect / XTT | 15% FBS | 0.0065 µM |
| CN(C(=O)c1ccccc1SSc1ccccc1C(=O)N(C)c1ccc(S(N)(=O)=O)cc1)c1ccc(S(N)(=O)=O)cc1 |  |  | cytopathic effect / XTT |  | 22 µM |
| Cc1cc(S(=O)(=O)CCc2cccc3ccccc23)c(Br)c(=O)o1 | IIIB |  | MTT |  | >10 µM |
| O=C(Nc1cc(S(=O)(=O)O)cc2cc(S(=O)(=O)O)c(N=Nc3ccc(N=Nc4c(S(=O)(=O)O)cc5cc(S(=O)(=O)O)cc(NC(=O)c6cccc(Cl)c6Cl)c5c4O)cc3)c(O)c12)c1ccc(Cl)cc1Cl | RF |  |  |  | 0.04–0.27 µg/mL |
| Nc1ncnc2c1ncn2CCOCP(=O)(O)O | IIIB |  |  |  | 6 µM |
| CCCOc1ccc(C[C@H](NC(=O)c2cccc(O)c2C)[C@H](O)C(=O)N2CSC(C)(C)[C@H]2C(=O)NCc2ccccc2C)cc1 | IIIB |  | cytopathic effect / XTT | 15% FBS | 0.0032 µM |
| C=C(COCP(=O)(O)O)Cn1cnc2c(=O)[nH]c(N)nc21 | IIIB |  |  |  | 7.5 µM |
| O=C1N(Cc2ccccc2)c2cscc2S(=O)(=O)N1Cc1ccccc1 |  | RT-Y188H | syncytia |  | 7.8 µM |
| CC(C)=CCOc1cc(NC(=S)c2ccsc2C)ccc1Cl |  |  | cytopathic effect |  | 0.005 µg/mL |
| Cc1cn([C@@H]2O[C@H](CO[Si](C)(C)C(C)(C)C)[C@]3(C(N)=CS(=O)(=O)N3C)[C@H]2O[Si](C)(C)C(C)(C)C)c(=O)n(C(=O)OC(C)(C)C)c1=O |  | RT-K103N | cytopathic effect |  | >10 µM |
| Cc1cc(NCc2ccccc2)cc(=O)o1 | IIIB |  | MTT |  | >250 µM |
| CC(C)CC(NC(=O)c1ccccc1SSc1ccccc1C(=O)NC(CC(C)C)C(=O)NC(C)C(=O)O)C(=O)NC(C)C(=O)O |  |  | cytopathic effect / XTT |  | 71 µM |
| CCN1C(=O)N(Cc2cccc(Cl)c2)S(=O)(=O)c2cscc21 |  | RT-K103N | syncytia |  | >56 µM |
| CC(C)CC(NC(=O)c1ccccc1SSc1ccccc1C(=O)NC(CC(C)C)C(=O)O)C(=O)O |  |  | cytopathic effect / XTT |  | 8.9 µM |
| Cc1cc(NCc2cccc3ccccc23)c(C(=O)C(Cl)Cl)c(=O)o1 | IIIB |  | MTT |  | >2 µM |
| COc1ccc(C[C@H](NC(=O)c2cccc(O)c2C)[C@H](O)C(=O)N2CSC(C)(C)[C@H]2C(=O)NCc2c(C)cccc2C)cc1 | IIIB |  | cytopathic effect / XTT | 50% human serum | 0.014 µM |
| N#CCN1C(=O)N(Cc2ccccc2)S(=O)(=O)c2cscc21 |  | RT-K103N | syncytia |  | >300 µM |
| Cc1ccnc2c1NC(=O)c1cccnc1N2C1CC1 | IIIB |  | cytopathic effect |  | 0.019 µg/mL |
| COc1ccc(C[C@H](NC(=O)c2cccc(O)c2C)[C@H](O)C(=O)N2CSC(C)(C)[C@H]2C(=O)NCc2ccccc2C)cc1 | IIIB |  | cytopathic effect / XTT | 15% FBS | 0.0066 µM |
| Nc1nc(N)c(C=O)c(OCCOCP(=O)(O)O)n1 | IIIB |  | syncytia |  | 1.3 µg/mL |
| Cc1cc(NCc2cccc3ccccc23)cc(=O)o1 | IIIB |  | MTT |  | >10 µM |
| COC(=O)[C@H](CCCCN)NP(=O)(OC[C@H]1C=C[C@@H](n2cnc3c(N)ncnc32)C1)Oc1ccccc1 | IIIB |  | syncytia |  | 25 µM |
| C[C@@]1(CO)C=CC(c2cnc(N)[nH]c2=O)C1 |  |  | XTT |  | 13.1 µM |
| Cc1cc(SCc2cccc3ccccc23)cc(=O)o1 | IIIB |  | MTT |  | >10 µM |
| Nc1ncnc2c1ncn2C1CC(CO)C1 | IIIB |  | cytopathic effect / XTT |  | 301 µM |
| Cc1occc1C(=S)Nc1ccc(Cl)c(/C=N/OC(C)(C)C)c1 | IIIB | RT-V106A | syncytia |  | 0.16 ± 0.06 µM |
| Cc1cc(N[C@@H](C)c2cccc3ccccc23)cc(=O)o1 | IIIB |  | MTT |  | >10 µM |
| O=C(O)c1ccccc1SSc1ccccc1C(=O)O |  |  | cytopathic effect / XTT |  | >100 µM |
| Cc1ccnc2c1NC(=O)c1cccnc1N2C1CC1 | IIIB |  | MTT |  | 0.17 µM |
| Cc1cn([C@@H]2O[C@H](CO[Si](C)(C)C(C)(C)C)[C@]3(C(N)=CS(=O)(=O)N3C)[C@H]2O[Si](C)(C)C(C)(C)C)c(=O)n(C)c1=O |  | RT-Y181C | cytopathic effect |  | >250 µM |

For reference, 5 entries again:

{"smiles": "Cc1cn([C@@H]2O[C@H](CO[Si](C)(C)C(C)(C)C)[C@]3(C(N)=CS(=O)(=O)N3C)[C@H]2O[Si](C)(C)C(C)(C)C)c(=O)n(C(=O)OC(C)(C)C)c1=O", "mutations": "RT-K103N", "read by": "cytopathic effect", "value": ">10 µM"}
{"smiles": "Cc1cc(NCc2cccc3ccccc23)c(C(=O)C(Cl)Cl)c(=O)o1", "strain or isolate": "IIIB", "read by": "MTT", "value": ">2 µM"}
{"smiles": "Nc1ncnc2c1ncn2CCOCP(=O)(O)O", "strain or isolate": "IIIB", "value": "6 µM"}
{"smiles": "CCCOc1ccc(C[C@H](NC(=O)c2cccc(O)c2C)[C@H](O)C(=O)N2CSC(C)(C)[C@H]2C(=O)NCc2ccccc2C)cc1", "strain or isolate": "IIIB", "read by": "cytopathic effect / XTT", "conditions": "15% FBS", "value": "0.0032 µM"}
{"smiles": "Cc1ccnc2c1NC(=O)c1cccnc1N2C1CC1", "strain or isolate": "IIIB", "read by": "cytopathic effect", "value": "0.019 µg/mL"}